# Experiment: PTAA-peptide fluorescence and optical absorption measurements (no enzyme)
# Details: PTAA 10 μg/mL
# Description: All PTAA and LL37FRRY mixing were carried out in the reaction buffer. All optical absorption and fluorescence measurements were carried out on 100 μL samples in a flat bottom 96 well plate using a TECAN Infinite® 200 PRO(Switzerland). Optical absorption measurements were collected from 330-650 nm. […] To understand the effect of intact and cleaved fragments on the fluorescence intensity and optical absorption of PTAA, LL37FRRV, frag1LL37FRRV (SEQ ID NO: 47) and frag2LL37FRRV (SEQ ID NO: 48) were added in different ratios (10:0, 8:2, 6:4, 4:6, 2:8, 0:10) while keeping the total peptide concentration at 50 μM. The fluorescence intensity and optical absorption spectra were measured as mentioned before.
sequence,measurement,setting,value
C L L G D F F R R Y K E K I G (CLLGDFFRRYKEKIG; LL37FRRY),peptide concentration at which the blue shift of PTAA absorption saturates,pH 8 reaction buffer,50 µM
same,peptide concentration at which the PTAA fluorescence intensity increase saturates,"emission 550 nm, excitation 420 nm",50 µM
